In paper PMC4412288, “Crystal Structures of the Carboxyl cGMP Binding Domain of the Plasmodium falciparum cGMP-dependent Protein Kinase Reveal a Novel Capping Triad Crucial for Merozoite Egress” (PLoS Pathogens, 2015):
Certain results were filed several times, with different values. This list holds those alone. An entry can have further records. Values that stand side by side differ, and nothing given here explains why; dose, time, organism, isomer or construct need not be as stated for each record.

The chains behind the UniProt entries cited, without tags or fusion partners.
UniProt Q8I719, whole entry Q532A: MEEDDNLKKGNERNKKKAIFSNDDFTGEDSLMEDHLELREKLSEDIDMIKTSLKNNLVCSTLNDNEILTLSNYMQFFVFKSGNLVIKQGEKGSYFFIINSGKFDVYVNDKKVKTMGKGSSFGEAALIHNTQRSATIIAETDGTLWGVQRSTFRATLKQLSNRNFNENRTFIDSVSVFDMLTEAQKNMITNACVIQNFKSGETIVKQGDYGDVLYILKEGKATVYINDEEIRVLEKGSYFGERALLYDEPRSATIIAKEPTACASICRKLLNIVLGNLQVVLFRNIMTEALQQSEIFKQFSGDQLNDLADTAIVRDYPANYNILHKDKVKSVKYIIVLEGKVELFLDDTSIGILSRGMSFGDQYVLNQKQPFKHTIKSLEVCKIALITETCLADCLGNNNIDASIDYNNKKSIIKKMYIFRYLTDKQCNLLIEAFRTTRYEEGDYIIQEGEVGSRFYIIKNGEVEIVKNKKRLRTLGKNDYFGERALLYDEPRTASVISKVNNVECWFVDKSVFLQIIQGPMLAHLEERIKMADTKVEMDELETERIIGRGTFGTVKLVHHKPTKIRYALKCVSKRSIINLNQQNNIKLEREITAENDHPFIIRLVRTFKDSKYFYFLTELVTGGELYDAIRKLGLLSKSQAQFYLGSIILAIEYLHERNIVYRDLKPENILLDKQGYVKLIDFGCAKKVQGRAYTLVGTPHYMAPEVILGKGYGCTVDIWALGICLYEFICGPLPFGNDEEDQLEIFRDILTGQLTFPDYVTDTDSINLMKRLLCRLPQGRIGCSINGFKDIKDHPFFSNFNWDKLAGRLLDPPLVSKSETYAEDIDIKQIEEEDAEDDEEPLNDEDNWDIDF
UniProt Q8I719, whole entry R484A: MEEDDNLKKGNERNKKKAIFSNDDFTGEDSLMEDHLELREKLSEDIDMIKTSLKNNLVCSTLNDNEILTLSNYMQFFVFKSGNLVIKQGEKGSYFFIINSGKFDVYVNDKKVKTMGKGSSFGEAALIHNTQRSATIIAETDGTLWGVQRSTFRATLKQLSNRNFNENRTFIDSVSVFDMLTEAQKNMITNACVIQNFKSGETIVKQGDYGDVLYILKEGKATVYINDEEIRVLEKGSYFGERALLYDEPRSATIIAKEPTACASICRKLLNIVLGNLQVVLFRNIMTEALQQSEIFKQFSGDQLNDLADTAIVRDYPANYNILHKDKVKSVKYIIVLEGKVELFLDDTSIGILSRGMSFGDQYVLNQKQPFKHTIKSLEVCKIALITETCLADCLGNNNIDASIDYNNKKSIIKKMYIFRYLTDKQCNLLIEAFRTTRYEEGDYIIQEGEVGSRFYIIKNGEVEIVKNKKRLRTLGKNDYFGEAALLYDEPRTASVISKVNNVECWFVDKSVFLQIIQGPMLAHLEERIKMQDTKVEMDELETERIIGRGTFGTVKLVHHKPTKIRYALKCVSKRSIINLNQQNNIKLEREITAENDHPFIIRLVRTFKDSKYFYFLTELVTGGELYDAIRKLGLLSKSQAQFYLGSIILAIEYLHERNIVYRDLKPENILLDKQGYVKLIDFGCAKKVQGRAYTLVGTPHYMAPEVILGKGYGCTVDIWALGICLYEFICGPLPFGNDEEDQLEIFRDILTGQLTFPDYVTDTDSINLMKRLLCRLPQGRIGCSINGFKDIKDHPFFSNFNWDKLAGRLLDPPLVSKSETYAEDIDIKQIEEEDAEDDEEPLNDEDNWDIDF
UniProt Q8I719, whole entry R484A/Q532A/D533A: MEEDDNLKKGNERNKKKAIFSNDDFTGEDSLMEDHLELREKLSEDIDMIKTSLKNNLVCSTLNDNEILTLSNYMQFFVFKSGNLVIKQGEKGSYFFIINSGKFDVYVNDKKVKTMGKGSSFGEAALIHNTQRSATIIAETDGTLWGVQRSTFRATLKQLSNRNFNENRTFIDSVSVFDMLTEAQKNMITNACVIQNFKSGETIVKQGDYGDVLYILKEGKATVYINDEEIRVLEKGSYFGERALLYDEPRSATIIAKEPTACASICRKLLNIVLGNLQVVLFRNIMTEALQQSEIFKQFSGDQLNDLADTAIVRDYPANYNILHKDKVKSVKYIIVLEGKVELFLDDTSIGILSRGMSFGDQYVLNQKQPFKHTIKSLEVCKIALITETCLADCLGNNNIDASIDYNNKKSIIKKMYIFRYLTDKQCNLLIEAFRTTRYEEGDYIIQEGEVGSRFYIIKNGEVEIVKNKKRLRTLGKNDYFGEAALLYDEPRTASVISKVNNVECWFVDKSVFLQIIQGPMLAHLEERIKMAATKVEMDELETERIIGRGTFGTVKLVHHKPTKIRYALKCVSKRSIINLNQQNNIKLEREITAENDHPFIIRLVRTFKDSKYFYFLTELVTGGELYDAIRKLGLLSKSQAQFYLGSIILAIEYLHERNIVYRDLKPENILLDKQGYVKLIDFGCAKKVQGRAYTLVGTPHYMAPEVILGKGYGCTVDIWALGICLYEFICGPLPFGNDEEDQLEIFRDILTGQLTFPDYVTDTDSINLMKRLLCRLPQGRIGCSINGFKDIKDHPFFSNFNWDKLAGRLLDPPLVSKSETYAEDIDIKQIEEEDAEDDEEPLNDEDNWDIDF

What was measured:
[1] = target: PfPKG (1-853) R484A/Q532A/D533A (Plasmodium falciparum, UniProt Q8I719, D533A/Q532A/R484A)
PfPKG (1-853) R484A = PfPKG (1-853) R484A (Plasmodium falciparum, UniProt Q8I719, R484A)
PfPKG (1-853) Q532A = PfPKG (1-853) Q532A (Plasmodium falciparum, UniProt Q8I719, Q532A)

For `Nc1nc2c(ncn2[C@@H]2O[C@@H]3COP(=O)(O)O[C@H]3[C@H]2O)c(=O)[nH]1` [cGMP, Cyclic GMP], which “Ka ± SEM (n), activation constant” value [1] is on record?
Its value is > 1.8 μM and 1.8 ± 0.4 μM (2).

What about the “Ka ± SEM (n), activation constant” value (PfPKG (1-853) R484A) of the same molecule?
Its value is 2–3 μM and 2.1 ± 0.5 μM (2).

What about the “Ka ± SEM (n), activation constant” value (PfPKG (1-853) Q532A) of the same molecule?
The value was 2–3 μM and 2.8 ± 0.3 μM (2).
